These molecules were tested on HeLa cells (assay: Compound cytotoxicity, WST-1 Cell Proliferation Reagent). Conditions: TC50 in HeLa cells / MIC against M. tuberculosis.
Type: cell-based
Experimental: HeLa cells were grown to confluence overnight (37°C, 5% CO2) in Dulbecco's Modified Eagle Medium with 10% fetal bovine serum (Invitrogen, Carlsbad, CA). The following day, 3000 cells were plated into each well of a 96-well plate and grown overnight. Compounds were diluted in culture medium and added to the cells to yield final concentrations of 100, 50, 25, 12.5, and 6.25 µg/ml. The cells were exposed to the compounds for 48 hours, after which the effect on cells was determined using the WST-1 Cell Proliferation Reagent (Roche Applied Science, Indianapolis, IN) according to manufacturer's protocols. Absorbance at 450 nm was used to calculate percent cytotoxicity with respect to a DMSO solvent control. The results were fitted onto a sigmoidal dose-response curve using Prism software to calculate the TC50 (compound concentration that causes 50% cell death).

SMILES	Ti = TC50/MIC
CS(=O)(=O)c1ncc(Cl)c(C(=O)NCc2ccccc2)n1 [L2-05, N-benzyl-5-chloro-2-methylsulfonylpyrimidine-4-carboxamide]	2
CCOC(=O)CCSc1ccccn1 [L2-04, ethyl 3-(pyridin-2-ylthio)propanoate]	4
COC(=O)c1cccc(C(=O)Oc2ccc(OC(=O)c3cccc(C(=O)OC)n3)c(Cl)c2)n1 [L2-10, 6-O-[3-chloro-4-(6-methoxycarbonylpyridine-2-carbonyl)oxyphenyl]2-O-methyl pyridine-2,6-dicarboxylate]	12
O=C1Nc2ccccc2C(=O)C1(O)O [L2-16, 3,3-dihydroxy-1H-quinoline-2,4-dione]	1
CCOc1ccc(CCNC(=O)Cn2sc3nc(C)cc(C)c3c2=O)cc1 [L2-13, 2-(4,6-dimethyl-3-oxo-[1], [2]thiazolo[5,4-b]pyridin-2-yl)-N-[2-(4-ethoxyphenyl)ethyl]acetamide]	2
S=C(Cc1ccccc1)N1CCCCC1 [L2-12, 2-phenyl-1-piperidin-1-ylethanethione]	14
COc1ccc(NC(=O)c2nc(S(C)(=O)=O)ncc2Cl)cc1Cl [L2-06, 5-chloro-N-(3-chloro-4-methoxyphenyl)2(methylsulfonyl)pyrimidine-4carboxamide]	4

From paper PMC3102704, “New Classes of Alanine Racemase Inhibitors Identified by High-Throughput Screening Show Antimicrobial Activity against Mycobacterium tuberculosis” (PLoS ONE, 2011)
